Record: PubChem BioAssay AID504761 (Drosophila RNAi Screening Center, 2011)
The deposit covers about 22,000 reagents; below is an unselected part of those with a known target gene and a result. Of all reagents, 116 (0.52%) are marked active. 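Calls depend on retest data that are not deposited; infection was ranked per plate without normalising between plates; the unit of the infection score is not given.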 Raw values vary from plate to plate and are shown uncorrected. Names joined by + are all predicted targets of the reagent. Further read-outs or replicates are left out here. Not given: the amount of reagent, the time to read-out.

Screen: 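Insect host genes that dengue virus relies on to spread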 (primary screen)
Cells: D.Mel-2 cells from Drosophila
Reagents: long dsRNA against Drosophila genes
Conditions: infection with dengue virus type 2; dose and infection time not stated
Measured: 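Per well on two replicate plates, imaging gave the percent of cells positive for viral envelope protein, ranked by infection, and a nuclear count of cells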
Reading the numbers: infection score: higher = more virus-infected cells; cell count: higher = more cells in the well
Active means: 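Very low infection ranking in both replicate wells (chance probability at most 0.065), then a retest showing infection dropped 1.5-fold or more at p below 0.05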
Meaning of the calls: active = confirmed: knock-down lowers infection; inactive = not picked or not confirmed

CG8051 [DRSC20077] | infection score, replicate 1 = 3.1; cell count, replicate 1 = 5190; Call = inactive
CG8051 [DRSC26855] | infection score, replicate 1 = 3.65; cell count, replicate 1 = 6143; Call = inactive
S-Lap1 [DRSC10627] | infection score, replicate 1 = 4.45; cell count, replicate 1 = 6472; Call = inactive
Mdr65 [DRSC11220] | infection score, replicate 1 = 1.91; cell count, replicate 1 = 5749; Call = inactive
prt [DRSC16894] | infection score, replicate 1 = 6.63; cell count, replicate 1 = 3999; Call = inactive
PH4alphaSG2 [DRSC15037] | cell count, replicate 1 = 379; Call = inactive
Vap33 [DRSC18384] | infection score, replicate 1 = 0.43; cell count, replicate 1 = 230; Call = inactive
gkt [DRSC00821] | infection score, replicate 1 = 3.94; cell count, replicate 1 = 6295; Call = inactive
CG31717 [DRSC01121] | infection score, replicate 1 = 2.09; cell count, replicate 1 = 6494; Call = inactive
fon [DRSC02507] | infection score, replicate 1 = 17; cell count, replicate 1 = 6622; Call = inactive
CG42671 [DRSC09093] | infection score, replicate 1 = 9.79; cell count, replicate 1 = 1205; Call = inactive
CG42671 [DRSC10321] | infection score, replicate 1 = 4.37; cell count, replicate 1 = 5651; Call = inactive
CG42671 [DRSC29747] | infection score, replicate 1 = 1.65; cell count, replicate 1 = 6735; Call = inactive
sut2 [DRSC07701] | infection score, replicate 1 = 31.9; cell count, replicate 1 = 4449; Call = inactive
CG14826 [DRSC10197] | infection score, replicate 1 = 2.4; cell count, replicate 1 = 6429; Call = inactive
beat-VII [DRSC13780] | infection score, replicate 1 = 7.71; cell count, replicate 1 = 4839; Call = inactive
beat-VII [DRSC14743] | cell count, replicate 1 = 375; Call = inactive
beat-VII [DRSC22825] | infection score, replicate 1 = 3.53; cell count, replicate 1 = 5075; Call = inactive
CG44001 + CG33995 [DRSC00853] | infection score, replicate 1 = 2.39; cell count, replicate 1 = 5899; Call = inactive
CG44001 + CG33995 [DRSC02898] | infection score, replicate 1 = 7.67; cell count, replicate 1 = 6092; Call = inactive
CG11658 [DRSC09852] | infection score, replicate 1 = 1.61; cell count, replicate 1 = 5965; Call = inactive

Records listed so far whose gene name starts with P or p:
prt [DRSC16894] | infection score, replicate 1 = 6.63; cell count, replicate 1 = 3999; Call = inactive
PH4alphaSG2 [DRSC15037] | cell count, replicate 1 = 379; Call = inactive
